Structures are written as SMILES.

The record followed here is patent publication US10533018B2, “Antimicrobial prochelators to target drug-resistant bacteria and methods of making and using the same” (Duke University, priority 2015, dated 2020).

The data set relates to K. pneumoniae clinical isolates 4 and 9. The data set is described as follows: LC-MS detection of intact DB4-51 in bacterial culture. As to conditions: 100 μM, 4 hours. Format: cell-based.

In the case of `O=C(Cc1ccccc1)N[C@@H]1C(=O)N2C(C(=O)O)=C(CSc3cccc[n+]3[O-])CS[C@H]12` [DB4-51, 2-((((6R,7R)-2-carboxy-8-oxo-7-(2-phenylacetamido)-5-thia-1-azabicyclo[4.2.0]oct-2-en-3-yl)methyl)thio)pyridine 1-oxide], the DB4-51 remained intact by setting is: (Klebs isolate 4) 90%; (Klebs isolate 9) “less than 15%”.
